Results of unrelated studies side by side (data: NIAID ChemDB).

Common to all: tests in culture

Lines come from different laboratories, so protocols vary.

structure | cells | agent | dose | mutations | strain or isolate | conditions | method | read-out | value
Nc1nc2c(ncn2CCOCP(=O)(O)O)c(=O)[nH]1 | - | Measles virus | - | - | CC | - | cytopathic effect | EC50 | 9 µg/mL
O=C(Nc1ccc(C(F)(F)F)cc1)c1cc(Cl)ccc1OP(=O)(OCc1ccccc1)OCc1ccccc1 | - | Mycobacterium kansasii | - | - | My 235/80 | 7 d | - | MIC | 16 µM
NC(=O)c1ncn([C@@H]2O[C@H](CO)[C@@H](O)[C@H]2O)n1 | HEP-2 | Respiratory syncytial virus | - | - | K686 | - | plaque count | EC50 | 6.77 µM
CCOC1c2cc(OC)c(OC)cc2-c2ccc3cc4c(cc3c2N1C)OCO4 | - | Saccharomyces cerevisiae | - | - | Mutant ΔERG6 | - | - | MIC | 1.56 µg/mL
CCCN(CCC)c1c([N+](=O)[O-])cc(C(F)(F)F)cc1[N+](=O)[O-] | - | Toxoplasma gondii | - | - | Ethalfluralin-resistant | - | - | EC50 | 3 µM
O=C(O)P(=O)(O)O | HEL | Varicella zoster virus | - | - | BVDU-resistant | - | plaque count | EC50 | 14.8 µg/mL
Nc1ncn([C@@H]2O[C@H](CO)[C@@H](O)[C@H]2O)c(=O)n1 | VERO | West Nile virus | - | - | NEW YORK | - | cytopathic effect / visual reading | EC50 | >320 µg/mL
C[C@H]1CN(c2c(F)cc3c(=O)c(C(=O)O)cn(C4CC4)c3c2OC(F)F)CCN1 | - | Streptococcus pneumoniae | - | - | 30 strains | - | - | MIC50 | 0.25 µg/mL
O=c1[nH]c(=O)n([C@@H]2O[C@H](CO)[C@@H](O)[C@@H]2O)cc1/C=C/Br | HEL | Varicella zoster virus | - | - | BVDU-resistant | - | plaque count | EC50 | >20 µg/mL
O=c1[nH]c(=O)n([C@@H]2O[C@H](CO)[C@@H](O)[C@H]2O)[nH]c1=S | VERO | West Nile virus | - | - | NEW YORK | - | cytopathic effect / visual reading | EC50 | 10 µg/mL
O=c1[nH]c(=O)n([C@H]2C[C@H](O)[C@@H](CO)O2)cc1/C=C/Br | HEL | Adenovirus | - | - | TYPE 2 | - | cytopathic effect | EC50 | >1000 µM
CCCN1CCN(c2cc(=O)c3nc4c(oc3c2)c2c(=O)c3c(O)c(C)c5c(c34)=C(O)[C@@](C)(O/C=C/[C@H](OC)[C@@H](C)[C@@H](OC(C)=O)[C@H](C)[C@H](O)[C@H](C)[C@@H](O)[C@@H](C)/C=C/C=C(/C)C(=O)N2)O5)CC1 | - | Staphylococcus aureus | - | - | 20 strains (methicillin-resistant) | - | - | MIC90 | 0.0039 µg/mL
C[C@@H]1CN(c2c(F)c(N)c3c(=O)c(C(=O)O)cn(C4CC4)c3c2F)C[C@H](C)N1 | - | Streptococcus pneumoniae | - | - | Clinical isolate 6678 | - | - | MIC | 0.5 µg/mL
CC1(C)[C@@H](O[C@H]2O[C@H](C(=O)O)[C@@H](O)[C@H](O)[C@H]2O[C@@H]2O[C@H](C(=O)O)[C@@H](O)[C@H](O)[C@H]2O)CC[C@]2(C)[C@H]3C(=O)C=C4[C@@H]5C[C@@](C)(C(=O)O)CC[C@]5(C)CC[C@@]4(C)[C@]3(C)CC[C@@H]12 | VERO | Dengue virus | - | - | Type 1 (Hawaii) | - | cytopathic effect | EC50 | 450 µg/mL
Nc1ncnc2c1ncn2C[C@H](CO)OCP(=O)(O)O | - | Adenovirus | - | - | TRIM (TYPE 8) | - | cytopathic effect | EC50 | 1 µg/mL
CC[C@@]1(O)C(=O)OCc2c1cc1n(c2=O)Cc2cc3cc4c(cc3nc2-1)OCO4 | - | Saccharomyces cerevisiae | - | - | Mutant ΔERG6 ΔTOP1 | - | - | MIC | >100 µg/mL
NC(=O)c1nc(F)c[nH]c1=O | MDCK | Influenza A virus | - | - | H1N1 Yamagata/120/86 | - | plaque count | EC50 | 0.12 µg/mL
NC(=O)c1ncn([C@@H]2O[C@H](CO)[C@@H](O)[C@H]2O)n1 | HEL | Adenovirus | - | - | TYPE 2 | - | cytopathic effect | EC50 | >250 µM
C[C@H]1COc2c(N3CCN(C)CC3)c(F)cc3c(=O)c(C(=O)O)cn1c23 | - | Staphylococcus aureus | - | - | 25 strains (ofloxacin-resistant) | - | - | MIC90 | 64 µg/mL
O=C(Nc1ccc(C(F)(F)F)cc1)c1cc(Br)ccc1OP(=O)(c1ccccc1)c1ccccc1 | - | Mycobacterium kansasii | - | - | My 6509/96 | 14 d | - | MIC | 4 µM
CO[C@H]1/C=C/O[C@@]2(C)Oc3c(C)c(O)c4c(=O)c(c5oc6cc(N7CCN(CC(C)C)CC7)cc(=O)c6nc5c4c3=C2O)NC(=O)/C(C)=C\C=C\[C@H](C)[C@H](O)[C@@H](C)[C@@H](O)[C@@H](C)[C@H](OC(C)=O)[C@@H]1C | - | Staphylococcus aureus | - | - | 20 strains (methicillin-resistant) | - | - | MIC90 | 0.016 µg/mL
CC[C@]1(O)C[C@H]2CN(CCc3c([nH]c4ccccc34)[C@@](C(=O)OC)(c3cc4c(cc3OC)N(C)[C@H]3[C@@](O)(C(=O)OC)[C@H](OC(C)=O)[C@]5(CC)C=CCN6CC[C@]43[C@@H]65)C2)C1 | RK-13 | Encephalitozoon intestinalis | 0.01 µg/mL | - | - | - | - | inhibition | 54.3%
CN(C)[C@@H]1C(=O)C(C(N)=O)=C(O)[C@@]2(O)C(=O)C3=C(O)c4c(O)c(NC(=O)CNc5ccccc5)cc(F)c4C[C@H]3C[C@@H]12 | - | Staphylococcus aureus | - | - | 161-MRS | - | agar diffusion | EC50 | 4 µg/mL
O=C1c2cc(Br)ccc2OP(=O)(c2ccccc2)N1c1ccc(C(F)(F)F)cc1 | - | Mycobacterium kansasii | - | - | My 6509/96 | 14 d | - | MIC | 8 µM
C#CC[C@@H](C(=O)N[C@H](/C=C/C(=O)OCC)C[C@@H]1CCNC1=O)n1cccc(NC(=O)c2cc(C)on2)c1=O | H1-HELA | Rhinovirus | 0.108 µM | - | Serotype 95 | - | cytopathic effect / XTT | inhibition | 90%
COC(=O)Nc1nc2ccc(C(=O)c3ccccc3)cc2[nH]1 | RK-13 | Encephalitozoon intestinalis | 0.01 µg/mL | - | - | - | - | inhibition | 64.8%
COc1cc2oc(=O)ccc2cc1CC(O)C(C)(C)O | - | Klebsiella pneumoniae | - | - | ESBL-3971 | - | - | MIC | >250 µg/mL
O=C(Nc1ccc(Cl)c(Cl)c1)c1cc(Cl)ccc1OP(=O)(c1ccccc1)c1ccccc1 | - | Mycobacterium kansasii | - | - | My 6509/96 | 14 d | - | MIC | 8 µM
CC[C@]1(O)C(=O)OCc2c1cc1n(c2=O)Cc2cc3cc4c(cc3nc2-1)OCO4 | - | Saccharomyces cerevisiae | - | - | Mutant ΔERG6 ΔTOP1 | - | - | MIC | >100 µg/mL
Nc1ncnc2c1ncn2C[C@H](O)CO | P3HR-1 | Epstein-Barr virus | 1 µM | - | - | - | - | inhibition | 4%
NC1CCN(c2nc3c(cc2F)c(=O)c(C(=O)O)cn3-c2ccc(F)cc2F)C1 | - | Staphylococcus aureus | - | - | 25 strains (methicillin-susceptible) | - | - | MIC90 | ≤0.12 µg/mL
Nc1cc(OC[C@H](CO)OCP(=O)(O)O)nc(N)n1 | HEL | Adenovirus | - | - | TYPE 2 | - | cytopathic effect | EC50 | 5.4 µM
CC[C@@]1(OC(=O)CN)C(=O)OCc2c1cc1n(c2=O)Cc2cc3cc(O)ccc3nc2-1 | - | Saccharomyces cerevisiae | - | - | Mutant ΔERG6 ΔTOP1 | - | - | MIC | >100 µg/mL
Nc1nc2c(ncn2C[C@]2(CO)C[C@H]2CO)c(=O)[nH]1 | HEL | Adenovirus | - | - | TYPE 2 | - | PCR | EC50 | 614 µM
O=C(Nc1ccc(Br)cc1)c1cc(Cl)ccc1OP(=O)(Oc1ccccc1)c1ccccc1 | - | Mycobacterium kansasii | - | - | My 235/80 | 7 d | - | MIC | 4 µM
CCOC(=O)Nc1cc(NC(C)/C(=N/O)c2ccccc2)c([N+](=O)[O-])c(N)n1 | RK-13 | Encephalitozoon intestinalis | 1 µg/mL | - | - | - | - | inhibition | 11.46%
CC(=O)NC[C@H]1CN(c2ccc(N3CCOCC3)c(F)c2)C(=O)O1 | - | Staphylococcus aureus | - | - | 25 strains (methicillin-susceptible) | - | - | MIC50 | 2 µg/mL
O=C(Nc1ccccc1)c1ccccc1OP(=O)(OCc1ccccc1)OCc1ccccc1 | - | Mycobacterium kansasii | - | - | My 6509/96 | 14 d | - | MIC | 250 µM
NC(=O)c1ncn([C@@H]2O[C@H](CO)[C@@H](O)[C@H]2O)c1O | VERO | Parainfluenza virus | - | - | TYPE 3/C243 | - | plaque count | EC50 | 10.7 µg/mL
COc1cc(Cc2cnc(N)nc2N)cc(OC)c1Br | - | Mycobacterium ulcerans | - | - | Isolate 5143 | - | - | MBC | 8 µg/mL
Nc1nc(N)c2ncn(CCOCP(=O)(O)O)c2n1 | HEL | Varicella zoster virus | - | - | OKA | - | plaque count | EC50 | 0.7 µg/mL
COc1cc(NCc2cnc3nc(N)nc(N)c3c2C)cc(OC)c1 | RK-13 | Encephalitozoon intestinalis | 0.01 µg/mL | - | - | - | - | inhibition | 56.6%
NC(=O)c1c[se]c([C@@H]2O[C@H](CO)[C@@H](O)[C@H]2O)n1 | MA-104 | West Nile virus | - | - | NEW YORK | - | cytopathic effect / visual reading | EC50 | 8.1 µg/mL
COc1cc(Cc2cnc(N)nc2N)cc(OC)c1OCCCNc1ccc(S(=O)(=O)c2ccc(N)cc2)cc1 | - | Mycobacterium ulcerans | - | - | Isolate 94-539 | - | - | MBC | 4 µg/mL
Nc1ncnc2c1ncn2CCOCP(=O)(O)O | P3HR-1 | Epstein-Barr virus | 0.01 µM | - | - | - | - | inhibition | 5%
C[C@@H]1CN(c2c(F)c(N)c3c(=O)c(C(=O)O)cn(C4CC4)c3c2F)C[C@H](C)N1 | - | Haemophilus influenzae | - | - | 38 strains (ampicillin-susceptible) | - | - | MIC50 | 0.008 µg/mL
Nc1ccnc2c1ncn2[C@H]1C=C[C@@H](OCP(=O)(O)O)O1 | - | Adenovirus | - | - | adenoid 6 (TYPE 2) | - | cytopathic effect | EC50 | 17 µg/mL
CC[C@@]1(OC(=O)CN)C(=O)OCc2c1cc1n(c2=O)Cc2cc3c(N)c4c(cc3nc2-1)OCO4 | - | Saccharomyces cerevisiae | - | - | Mutant ΔERG6 | - | - | MIC | 3.12 µg/mL
CCOC(=O)Nc1cc2c(c(N)n1)N=C(c1ccc3ccccc3c1)CS2 | RK-13 | Encephalitozoon intestinalis | 10 µg/mL | - | - | - | - | inhibition | 74.1%
O=C(Nc1ccc(C(F)(F)F)cc1)c1cc(Cl)ccc1OP(=O)(Oc1ccccc1)Oc1ccccc1 | - | Mycobacterium kansasii | - | - | My 6509/96 | 21 d | - | MIC | 4 µM
CC(=O)N1CCN(c2ccc(OC[C@H]3CO[C@](Cn4ccnc4)(c4ccc(Cl)cc4Cl)O3)cc2)CC1 | - | Candida albicans | - | - | Isogenic isolate 15 Erg11 (4-5X) R467K | - | - | MIC | 0.03 µg/mL
C[C@H](Cc1ccc(O)c(O)c1)[C@@H](C)Cc1ccc(O)c(O)c1 | - | Candida tropicalis | - | - | CCC 131-1997 | - | broth dilution | MIC80 | 250 µg/mL
Nc1ccn([C@@H]2C=C(CO)[C@@H](O)[C@@H]2O)c(=O)n1 | VERO | West Nile virus | - | - | Uganda | - | cytopathic effect / visual reading | EC50 | 0.029 µg/mL
CC(C)(CO)C(=O)SCCOP(=O)(NCc1ccccc1)OC[C@H]1O[C@@H](n2cnc3c(=O)[nH]c(N)nc32)[C@](C)(O)[C@@H]1O | Replicon cells | Hepatitis C virus | - | Y93C | GT1b | - | replicon | fold resistance | 0.73
Nc1nccc2c1ncn2[C@@H]1C[C@H](CO)[C@@H](O)[C@H]1O | PRK | Vesicular stomatitis virus | - | - | - | - | cytopathic effect | EC50 | 0.2 µg/mL
O=C(Nc1ccc(Br)cc1)c1cc(Cl)ccc1OP(=O)(Oc1ccccc1)Oc1ccccc1 | - | Mycobacterium kansasii | - | - | My 235/80 | 14 d | - | MIC | 8 µM
CCCSc1ccc2nc(NC(=O)OC)[nH]c2c1 | RK-13 | Encephalitozoon intestinalis | 0.001 µg/mL | - | - | - | - | inhibition | 2%
COc1c(C)c2c(c(O)c1C/C=C(\C)CCC(=O)O)C(=O)OC2 | VERO | West Nile virus | - | - | Uganda | - | cytopathic effect | EC50 | 0.12 µg/mL
O=C(O)CP(=O)(O)O | HEL | Varicella zoster virus | - | - | PFA-resistant/A | - | plaque count | EC50 | 35.6 µg/mL
CCc1c2c(nc3ccc(O)cc13)-c1cc3c(c(=O)n1C2)COC(=O)[C@@]3(CC)OC(=O)CN | - | Saccharomyces cerevisiae | - | - | Mutant ΔERG6 | - | - | MIC | >100 µg/mL

Repeating the final 5 entries:

structure	cells	agent	dose	mutations	strain or isolate	conditions	method	read-out	value
O=C(Nc1ccc(Br)cc1)c1cc(Cl)ccc1OP(=O)(Oc1ccccc1)Oc1ccccc1	-	Mycobacterium kansasii	-	-	My 235/80	14 d	-	MIC	8 µM
CCCSc1ccc2nc(NC(=O)OC)[nH]c2c1	RK-13	Encephalitozoon intestinalis	0.001 µg/mL	-	-	-	-	inhibition	2%
COc1c(C)c2c(c(O)c1C/C=C(\C)CCC(=O)O)C(=O)OC2	VERO	West Nile virus	-	-	Uganda	-	cytopathic effect	EC50	0.12 µg/mL
O=C(O)CP(=O)(O)O	HEL	Varicella zoster virus	-	-	PFA-resistant/A	-	plaque count	EC50	35.6 µg/mL
CCc1c2c(nc3ccc(O)cc13)-c1cc3c(c(=O)n1C2)COC(=O)[C@@]3(CC)OC(=O)CN	-	Saccharomyces cerevisiae	-	-	Mutant ΔERG6	-	-	MIC	>100 µg/mL

ECn: concentration that inhibits the pathogen or its effect by n%. Inhibition is in % at the dose shown (toxicity tests: loss of growth or viability). An empty or dashed field is not shown. A number after MIC or MFC names an inhibition level or a share of isolates. Fold resistance has wild type as its base.